Pooled drug test results. Numbers come from NIAID ChemDB, via PubChem.

Common to all: whole-cell or culture tests; species: HIV-2; endpoint: EC50

Lines come from different laboratories, so protocols vary.

smiles,strain,method,cells,result
C=Cc1nc2c(N)ncnc2n1[C@H]1CC[C@@H](CO)O1,-,cytopathic effect,CEM,>20 µg/mL
CC1=C(N)C(C)(C)N(Cc2ccccc2)S1(=O)=O,ROD,cytopathic effect / MTT,MT-4,>125 µg/mL
N[C@H]1C(=O)N[C@@H]2Cc3ccc(c(Cl)c3)Oc3cc4cc(c3O)Oc3ccc(cc3Cl)[C@@H](O)[C@@H]3NC(=O)[C@H](NC(=O)[C@@H]4NC(=O)[C@@H](NC2=O)c2cc(O)cc(c2)Oc2cc1ccc2O)c1ccc(O)c(c1)-c1c(O)cc(O)cc1[C@@H](C(=O)C1NCCC2CCCCC21)NC3=O,-,syncytia,CEM,8.2 µM
COC(=O)CCNP(=O)(OC[C@@H]1C=C[C@H](n2cc(C)c(=O)[nH]c2=O)O1)Oc1ccccc1,-,cytopathic effect / microscopy,CEM + CEM/0,6 µM
N#Cc1ccc(Nc2nc(Oc3ccc(-c4ccc(C#N)cc4)c(F)c3F)c3sccc3n2)cc1,ROD,MTT,MT-4,>104.3 µM
CC(C)CC(NS(=O)(=O)c1ccc(Cl)cc1)c1nnc(NS(=O)(=O)c2ccc(Br)cc2)s1,ROD,MTT,MT-4,>57.63 µM
Cc1cn([C@@H]2O[C@H](COC(=O)c3ccccc3)C3(OS(=O)(=O)C=C3N)[C@H]2O[Si](C)(C)C(C)(C)C)c(=O)n(C)c1=O,-,-,MT-4,>15 µM
CN1N=C(N)c2cn([C@@H]3O[C@H](COP(=O)(O)O)[C@@H](O)[C@H]3O)c3ncnc1c23,ROD,cytopathic effect / XTT,CEM + CEM-SS,0.02 µM
Cc1ccc(C)c(C(Cl)S(=O)(=O)c2cc(C)cc[n+]2[O-])c1,EHO,cytopathic effect,CEM,>4 µg/mL
Cc1ccc2nc(-c3c(F)cccc3F)n(Cc3c(F)cccc3F)c2c1,ROD,RT activity,MT-4,>30.45 µM
C/C(=N\Nc1nc(-c2ccc(Cl)cc2)cs1)c1ccc(-n2ccnc2)cc1,ROD,MTT,MT-4,>92.25 µM
CC(C)(C)[Si](C)(C)CCOCN1C=CC(=O)N(COCC[Si](C)(C)C(C)(C)C)S1(=O)=O,-,cytopathic effect / MTT,MT-4,>400 µg/mL
Cc1cc(C#N)cc(C)c1Oc1nc(Nc2ccc(C#N)cc2)ncc1SCC(=O)NCCN1CCOCC1,ROD,MTT,MT-4,>21.9 µM
Cc1ccc(/C=N/Nc2nc(-c3ccc(Br)cc3)cs2)cc1,ROD,MTT,MT-4,>125 µM
Cc1ccc2c(c1)nc(-c1c(F)cccc1F)n2Cc1c(F)cccc1F,ROD,RT activity,MT-4,>31.95 µM
C#Cc1ccc(Nc2nccc(Oc3c(C)cc(-c4cn(Cc5ccc(C(=O)OC)cc5)nn4)cc3C)n2)cc1,ROD,MTT,MT-4,>128 µM
Cc1ccc(S(=O)(=O)Nc2nnc(C(C)NS(=O)(=O)c3ccc(Cl)cc3)s2)cc1,ROD,MTT,MT-4,>60.53 µM
Cc1cn([C@@H]2O[C@H](COS(=O)(=O)c3ccccc3)C3(OS(=O)(=O)C=C3N)[C@H]2O[Si](C)(C)C(C)(C)C)c(=O)n(C)c1=O,-,-,MT-4,≥30 µM
CCOCc1cn([C@H]2C=C[C@@H](CO)O2)c(=O)[nH]c1=O,D194,RT activity,PBMC,4.7 µM
CC1(C)C(N)=C(c2ccccc2)S(=O)(=O)N1Cc1cccc(Cl)c1,ROD,cytopathic effect / MTT,MT-4,>125 µg/mL
C#Cc1ccc(Nc2nccc(Oc3c(C)cc(-c4cn(CCc5cccs5)nn4)cc3C)n2)cc1,ROD,MTT,MT-4,>5.53 µM
Cc1cc(-c2ccc(C#N)cc2)ccc1Oc1nc(Nc2ccc(C#N)cc2)nc2ccsc12,ROD,MTT,MT-4,>8.7 µM
COc1ccc(Nc2nn3c(=O)c4ccccc4nc3s2)cc1,ROD,cytopathic effect / MTT,MT-4,>97.4 µg/mL
Cc1cc(C#N)cc(C)c1Oc1nc(Nc2ccc(C#N)cc2)ncc1SCC(=O)NCc1ccc(O)cc1,ROD,MTT,MT-4,>21.7 µM
Nc1ccn([C@@H]2CS[C@H](CO)O2)c(=O)n1,ROD,MTT,MT-4,2.02 µM
CC1(C)OS(=O)(=O)C=C1NCCc1ccccc1,ROD,cytopathic effect / MTT,MT-4,>125 µg/mL
CC1=CC(=O)N(COCc2ccccc2)S(=O)(=O)N1COCc1ccccc1,-,cytopathic effect / MTT,MT-4,>400 µg/mL
CC1(C)C(N)=CS(=O)(=O)N1Cc1ccccc1,ROD,cytopathic effect / MTT,MT-4,>125 µg/mL
COC(=O)[C@@H](C)NP(=O)(OC[C@@H]1C=C[C@H](n2cc(C)c(=O)[nH]c2=O)O1)Oc1ccccc1,ROD,-,CEM + CEM TK-,2.5 µM
CC1(C)[C@@H](CCO)C[C@H]1n1cnc2c(N)ncnc21,-,cytopathic effect,CEM,>20 µg/mL
CC(C)CCC[C@@H](C)[C@H]1CC[C@H]2[C@@H]3CC[C@H]4C[C@@H](CCC=C(c5cc(Cl)c(O)c(C(=O)O)c5)c5cc(Cl)c(O)c(C(=O)O)c5)CC[C@]4(C)[C@H]3CC[C@]12C,ROD,MTT,MT-4,4 µM
Cc1nc(CCCCCCC(=O)c2ccccc2)n2nc(Cl)ccc12,D194,RT activity,PBMC,>10 µM
Cc1cc(S(N)(=O)=O)ccc1NC(=O)COc1ccc(Cl)cc1C(=O)c1cc(Cl)cc(Cl)c1,-,cytopathic effect / propidium iodide,MT-4,1–3 µM
CC(C)=CCOC[C@H]1O[C@@H](n2cc(C)c(=O)n(C)c2=O)[C@H](O[Si](C)(C)C(C)(C)C)C12OS(=O)(=O)C=C2N,-,-,MT-4,>10 µM
CC(C)CC(NS(=O)(=O)c1ccc(Cl)cc1)c1nnc(NS(=O)(=O)c2ccc(Cl)cc2)s1,ROD,MTT,MT-4,>59.93 µM
Fc1ccccc1Cn1c(-c2ccccc2F)nc2ccccc21,ROD,RT activity,MT-4,>23.33 µM
Cc1ccc(S(=O)(=O)c2ccsc2NC(=O)C(F)(F)F)cc1,ROD,cytopathic effect / MTT,CEM + CEM/O,>8 µg/mL
Cc1cc(-c2ccc(C#N)cc2)cc(Cl)c1Oc1nc(Nc2ccc(C#N)cc2)nc2ccsc12,ROD,MTT,MT-4,>70.3 µM
C=C(C)[C@@H]1CC[C@]2(C(=O)NCCCCCCCC(=O)N[C@@H](CC(C)C)[C@@H](O)CC(=O)O)CC[C@]3(C)[C@H](CC[C@@H]4[C@@]5(C)CC[C@H](O)C(C)(C)[C@@H]5CC[C@]43C)[C@@H]12,ROD,cytopathic effect / MTT,MT-4,>10 µM
Cc1ccc(S(=O)(=O)c2ccsc2NC(=O)c2ccccc2)cc1,ROD,cytopathic effect / MTT,CEM + CEM/O,>40 µg/mL
Cc1nc(CCCCCCC(=O)c2ccccc2)n2nc(NCCCCCCCCCCN)ccc12,D194,RT activity,PBMC,>10 µM
Cc1cc(C#N)cc(C)c1Oc1nc(Nc2ccc(C#N)cc2)ncc1SCC(N)=O,ROD,MTT,MT-4,>290 µM
N#Cc1ccc(Nc2nc(Oc3ccc(-c4ccc(C#N)cc4)cc3Cl)c3sccc3n2)cc1,ROD,MTT,MT-4,>16.1 µM
Cc1cc(C#N)cc(C)c1Oc1nc(Nc2ccc(C#N)cc2)ncc1SCC(=O)NC1CCN(C(=O)OC(C)(C)C)CC1,ROD,MTT,MT-4,>204 µM
N#Cc1ccc(Nc2nc(Oc3c(F)cc(-c4ccc(C#N)cc4)cc3F)c3sccc3n2)cc1,ROD,MTT,MT-4,>37.8 µM
COC(=O)c1ccccc1S(=O)(=O)c1cc(Br)sc1NC=O,ROD,cytopathic effect / MTT,CEM + CEM/O,>8 µg/mL
NC1=NS(=O)(=O)N(Cc2ccccc2)c2nc[nH]c21,ROD,syncytia,CEM,>100 µg/mL
COC(=O)CCS(=O)(=O)c1cnc(Nc2ccc(C#N)cc2)nc1Oc1c(C)cc(C#N)cc1C,ROD,MTT,MT-4,>13.6 µM
Cc1nc(CCCCCCC(=O)c2ccccc2)n2nc(NCCCCCCNCc3cn([C@H]4C=C[C@@H](CO)O4)c(=O)[nH]c3=O)ccc12,D194,RT activity,PBMC,0.1 µM
O=C1Nc2sccc2S(=O)(=O)c2ccccc21,ROD,cytopathic effect / MTT,CEM + CEM/O,>200 µg/mL
Cc1ccc(C)c(CSc2c(Cl)ccc[n+]2[O-])c1,EHO,cytopathic effect,CEM,≥20 µg/mL
NC1=NS(=O)(=O)N(Cc2ccccc2)c2nc(Cc3ccccc3)[nH]c21,ROD,syncytia,CEM,≥4 µg/mL
N#CC1=CN(COCc2ccccc2)S(=O)(=O)N=C1N,-,cytopathic effect / MTT,MT-4,>400 µg/mL
C=CCOC[C@H]1O[C@@H](n2cc(C)c(=O)n(C)c2=O)[C@H](O[Si](C)(C)C(C)(C)C)C12OS(=O)(=O)C=C2N,-,-,MT-4,>50 µM
CCc1c(Sc2ccccc2)n(COCc2ccccc2)c(=O)[nH]c1=O,EHO,cytopathic effect / MTT,MT-4,>30 µM
CC1(C)[C@@H](CCO)C[C@H]1n1nnc2c(N)nc(N)nc21,-,cytopathic effect,CEM,>20 µg/mL
Cc1cc(C#N)cc(C)c1Oc1nc(Nc2ccc(C#N)cc2)ncc1SCC(=O)N1CCN(C(=O)OC(C)(C)C)CC1,ROD,MTT,MT-4,>208 µM
Brc1ccc(-c2csc(N/N=C/c3ccncc3)n2)cc1,ROD,MTT,MT-4,>125 µM
Cc1cn([C@H]2C=C[C@@H](CO)O2)c(=O)[nH]c1=O,D194,RT activity,PBMC,0.18 µM
Nc1sccc1S(=O)(=O)c1ccccc1,ROD,cytopathic effect / MTT,CEM + CEM/O,32 µg/mL
Cc1cc(C)c(CS(=O)c2cccc[n+]2[O-])c(C)c1,ROD,cytopathic effect,CEM,1.5 µg/mL
CC1(C)[C@@H](CCO)C[C@H]1n1cnc2c(=O)[nH]cnc21,-,cytopathic effect,MT-4,>100 µg/mL
Cc1nc(CCCCCCC(=O)c2ccccc2)n2nc(NCCCCCCCCCCNCc3cn([C@H]4C=C[C@@H](CO)O4)c(=O)[nH]c3=O)ccc12,D194,RT activity,PBMC,0.31 µM
COc1c(Cl)cc(C(=CCC[C@@H](C)[C@H]2CCC3C4C(C[C@H](O)[C@@]32C)[C@@]2(C)CC[C@@H](O)C[C@H]2C[C@H]4O)c2cc(Cl)c(OC)c(C(=O)O)c2)cc1C(=O)O,ROD,MTT,MT-4,>54.1 µM
COC(=O)c1ccccc1S(=O)(=O)c1ccsc1N,ROD,cytopathic effect / MTT,CEM + CEM/O,55 µg/mL
CCOC(=O)[C@H](C)NP(=O)(OC[C@@H]1C=C[C@H](n2cc(C)c(=O)[nH]c2=O)O1)Oc1ccccc1,-,cytopathic effect / microscopy,CEM + CEM TK-,0.07 µM

Again, the opening 5 rows:

smiles	strain	method	cells	result
C=Cc1nc2c(N)ncnc2n1[C@H]1CC[C@@H](CO)O1	-	cytopathic effect	CEM	>20 µg/mL
CC1=C(N)C(C)(C)N(Cc2ccccc2)S1(=O)=O	ROD	cytopathic effect / MTT	MT-4	>125 µg/mL
N[C@H]1C(=O)N[C@@H]2Cc3ccc(c(Cl)c3)Oc3cc4cc(c3O)Oc3ccc(cc3Cl)[C@@H](O)[C@@H]3NC(=O)[C@H](NC(=O)[C@@H]4NC(=O)[C@@H](NC2=O)c2cc(O)cc(c2)Oc2cc1ccc2O)c1ccc(O)c(c1)-c1c(O)cc(O)cc1[C@@H](C(=O)C1NCCC2CCCCC21)NC3=O	-	syncytia	CEM	8.2 µM
COC(=O)CCNP(=O)(OC[C@@H]1C=C[C@H](n2cc(C)c(=O)[nH]c2=O)O1)Oc1ccccc1	-	cytopathic effect / microscopy	CEM + CEM/0	6 µM
N#Cc1ccc(Nc2nc(Oc3ccc(-c4ccc(C#N)cc4)c(F)c3F)c3sccc3n2)cc1	ROD	MTT	MT-4	>104.3 µM

ECn: concentration that inhibits the pathogen or its effect by n%. a–b is a range or a potency band. An empty or dashed field is not shown.